Results of unrelated studies side by side (data: NIAID ChemDB).

All rows: tests in culture

Two numbers with a dash give a range or band. Zones are inhibition diameters on agar. Inhibition is in % at the dose shown (toxicity tests: loss of growth or viability). A number after MIC or MFC names an inhibition level or a share of isolates. Conditions beyond the fields shown may differ between rows. Blank or dashed fields: not listed here.

{"smiles": "Cc1ccc(N2NOC(=O)C2S(=O)(=O)Nc2ccc(-n3c(-c4ccc([N+](=O)[O-])cc4)nc4ccccc4c3=O)cc2)cc1", "agent": "Aspergillus clavatus", "read-out": "MIC", "method": "broth dilution", "strain": "MTCC323", "result": "500 µg/mL"}
{"smiles": "Clc1cccc(N2CCN(c3nc(NCCNc4ncnc5c(Br)cc(Br)cc45)nc(NC4CC4)n3)CC2)c1", "agent": "Aspergillus clavatus", "read-out": "MIC", "method": "agar", "strain": "MTCC 1323", "result": "100 µg/mL"}
{"smiles": "O=C1C(=O)c2ccccc2-c2ccccc21", "agent": "Aspergillus oryzae", "read-out": "MIC", "method": "visual reading", "strain": "KACC 44823", "result": "40 µg/mL"}
{"smiles": "C[C@@H](c1ncncc1F)[C@](O)(Cn1cncn1)c1ccc(F)cc1F", "agent": "Aspergillus niger", "read-out": "MIC50", "result": "0.25–2 µg/mL"}
{"smiles": "C[C@@H]1[C@H](O)[C@@H](C)/C=C/C=C/CC/C=C/C=C/C=C/C=C/C(O[C@H]2O[C@H](C)[C@@H](O)[C@H](N)[C@@H]2O)CC2O[C@](O)(CC(O)C(O)CCC(O)CC(O)CC(O)CC(=O)O[C@H]1C)CC(O)C2C(=O)O", "agent": "Aspergillus clavatus", "read-out": "MIC", "method": "broth dilution", "strain": "MTCC 1323", "result": "100 µg/mL"}
{"smiles": "Cc1ccc(N2NOC(=O)C2S(=O)(=O)Nc2nc3cc(C)ccc3s2)cc1", "agent": "Aspergillus clavatus", "read-out": "MIC", "method": "broth dilution", "strain": "MTCC323", "result": "500 µg/mL"}
{"smiles": "C[C@@H](c1ncncc1F)[C@](O)(Cn1cncn1)c1ccc(F)cc1F", "agent": "Aspergillus fumigatus", "read-out": "MFC", "strain": "NFI 0159", "result": "0.25 µg/mL"}
{"smiles": "Brc1cc(Br)c2ncnc(NCCNc3nc(NC4CC4)nc(N4CCN(Cc5ccccc5)CC4)n3)c2c1", "agent": "Aspergillus clavatus", "read-out": "MIC", "method": "agar", "strain": "MTCC 1323", "result": "100 µg/mL"}
{"smiles": "Cc1cc(C)nc(Nc2ccccc2)n1", "agent": "Aspergillus niger", "read-out": "zone", "dose": "100 µg/mL", "result": "3.2 mm"}
{"smiles": "O=C1C=C(NCCN2CCOCC2)C(=O)c2ccccc21", "agent": "Aspergillus parasiticus", "read-out": "MIC100", "method": "broth dilution", "strain": "MTCC 2797", "result": "125 µg/mL"}
{"smiles": "CNCCC(Oc1ccc(C(F)(F)F)cc1)c1ccccc1", "agent": "Aspergillus fumigatus", "read-out": "MFC", "strain": "10 clinical isolates", "result": "39–625 µg/mL"}
{"smiles": "COc1c(O)cc2oc(-c3ccc(O)cc3)cc(=O)c2c1O", "agent": "Aspergillus tubingensis", "read-out": "zone", "dose": "400 µg/mL", "method": "agar diffusion", "result": "0 mm"}
{"smiles": "Cc1ccc(N2NOC(=O)C2S(=O)(=O)Nc2nc(-c3ccc(F)cc3F)cs2)cc1", "agent": "Aspergillus clavatus", "read-out": "MIC", "method": "broth dilution", "strain": "MTCC323", "result": "200 µg/mL"}
{"smiles": "CN(C/C=C/C#CC(C)(C)C)Cc1cccc2ccccc12", "agent": "Aspergillus flavus", "read-out": "MIC100", "method": "broth dilution", "strain": "ATCC 9170", "result": "0.78 µg/mL"}
{"smiles": "Cc1ccc(C(C)C)cc1O", "agent": "Aspergillus flavus", "read-out": "MIC100", "method": "agar", "result": "200 µg/mL"}
{"smiles": "CN(C)C1=NC(=O)/C(=C/c2ccc(Cl)cc2)S1", "agent": "Aspergillus flavus", "read-out": "MIC100", "method": "broth dilution", "strain": "ATCC 9170", "result": ">250 µg/mL"}
{"smiles": "CC(C)c1cc2c(c(O)c1O)[C@@]13CCCC(C)(C)C1C[C@@H]2OC3=O", "agent": "Aspergillus tubingensis", "read-out": "zone", "dose": "400 µg/mL", "method": "agar diffusion", "result": "0 mm"}
{"smiles": "C[C@@H]1[C@H](O)[C@@H](C)/C=C/C=C/CC/C=C/C=C/C=C/C=C/C(O[C@H]2O[C@H](C)[C@@H](O)[C@H](N)[C@@H]2O)CC2O[C@](O)(CC(O)C(O)CCC(O)CC(O)CC(O)CC(=O)O[C@H]1C)CC(O)C2C(=O)O", "agent": "Aspergillus clavatus", "read-out": "MIC", "strain": "MTCC 1323", "result": "100 µg/mL"}
{"smiles": "CN=C(N)NCCC/C=C/CCCC(C)CC(C)C1OC(=O)C(C)C(O)/C=C/C(C)C(O)CC(O)C(C)C(O)CCC(C)C(O)CC2(O)OC(CC(OC(=O)CC(=O)O)CC(O)CC(O)C(C)C(O)/C=C/C=C/C1C)CC(O)C2O", "agent": "Aspergillus oryzae", "read-out": "MIC", "result": "8 µg/mL"}
{"smiles": "COc1ccc(N2CCN(c3nc(Cl)nc(NC4CC4)n3)CC2)cc1", "agent": "Aspergillus clavatus", "read-out": "MIC", "method": "agar", "strain": "MTCC 1323", "result": "50 µg/mL"}
{"smiles": "O=C1NC2C=CC1C2", "agent": "Aspergillus glaucus", "read-out": "MIC", "strain": "AM211", "result": "262.6 µg/mL"}
{"smiles": "COc1ccc2nc(NS(=O)(=O)C3C(=O)ONN3c3ccc(C)cc3)sc2c1", "agent": "Aspergillus clavatus", "read-out": "MIC", "method": "broth dilution", "strain": "MTCC323", "result": "250 µg/mL"}
{"smiles": "O=c1oc2ccccc2c2nc3c(cc12)CCc1ccccc1-3", "agent": "Aspergillus nidulans", "read-out": "zone", "dose": "1 mg/mL", "strain": "MTCC 282", "result": "18 mm"}
{"smiles": "CCCCC1(CCCC)OC(=O)C2CC=CCC21", "agent": "Aspergillus glaucus", "read-out": "MIC", "strain": "AM211", "result": ">350 µg/mL"}
{"smiles": "[Al]#[P]", "agent": "Aspergillus terreus", "read-out": "MFC", "method": "agar", "result": ">5 µg/mL"}
{"smiles": "CC1=CC(=O)c2c(O)cccc2C1=O", "agent": "Aspergillus flavus", "read-out": "MIC100", "method": "broth dilution", "strain": "CCAM 080001", "result": "5 µg/mL"}
{"smiles": "Cc1ccc(N2NOC(=O)C2S(=O)(=O)Nc2nc(-c3ccc(Cl)cc3)cs2)cc1", "agent": "Aspergillus clavatus", "read-out": "zone", "dose": "250 µg/mL", "method": "agar diffusion", "strain": "MTCC323", "result": "20 mm"}
{"smiles": "CCCC(=O)N1C(=O)C2C=CC1C2", "agent": "Aspergillus glaucus", "read-out": "MIC", "strain": "AM211", "result": "203.8 µg/mL"}
{"smiles": "COc1cccc(OC)c1O", "agent": "Aspergillus flavus", "read-out": "MIC100", "method": "agar", "result": ">1000 µg/mL"}
{"smiles": "COc1cccc(N=C(C)c2cc(C(C)=Nc3cccc(OC)c3)c(O)cc2O)c1", "agent": "Aspergillus clavatus", "read-out": "MIC", "method": "broth dilution", "strain": "MTCC 1323", "result": "250 µg/mL"}
{"smiles": "CN(C)C1=NC(=O)/C(=C/c2ccc([N+](=O)[O-])cc2)S1", "agent": "Aspergillus flavus", "read-out": "MIC100", "method": "broth dilution", "strain": "ATCC 9170", "result": ">250 µg/mL"}
{"smiles": "CC(C)=CCC/C(C)=C/CO", "agent": "Aspergillus flavus", "read-out": "MFC", "method": "broth dilution", "strain": "NRRL 501", "result": "288 µg/mL"}
{"smiles": "C/C=C/c1ccc(O)c(OC)c1", "agent": "Aspergillus flavus", "read-out": "MIC50", "method": "agar", "result": "94 µg/mL"}
{"smiles": "C[C@H]1[C@H](O)[C@@H](C)/C=C/C=C/C=C/C=C/C=C/C=C/C=C/[C@H](O[C@@H]2O[C@H](C)[C@@H](O)[C@H](N)[C@@H]2O)C[C@@H]2O[C@](O)(C[C@@H](O)C[C@@H](O)CC[C@H](O)[C@@H](O)C[C@@H](O)CC(=O)O[C@H]1C)C[C@H](O)[C@H]2C(=O)O", "agent": "Aspergillus fumigatus", "read-out": "MIC50", "strain": "60 isolates", "result": "1 µg/mL"}
{"smiles": "CC(=O)OC[C@H]1O[C@@H](n2[nH]c(-c3ccccc3)[n+](/N=C/c3ccc(C)cc3)c2=S)[C@H](OC(C)=O)[C@@H](OC(C)=O)[C@@H]1OC(C)=O", "agent": "Aspergillus fumigatus", "read-out": "zone", "dose": "2.5 mg/mL", "method": "agar diffusion / agar", "result": "1–5 mm"}
{"smiles": "COc1cccc(C=O)c1O", "agent": "Aspergillus terreus", "read-out": "MIC", "method": "agar", "strain": "UAB680", "result": "500 µM"}
{"smiles": "Clc1nc(NC2CC2)nc(N2CCC(Cc3ccccc3)CC2)n1", "agent": "Aspergillus clavatus", "read-out": "MIC", "method": "agar", "strain": "MTCC 1323", "result": "200 µg/mL"}
{"smiles": "C[C@@H](c1nc(-c2ccc(C#N)cc2)cs1)[C@](O)(Cn1cncn1)c1cc(F)ccc1F", "agent": "Aspergillus niger", "read-out": "MIC90", "result": "2–4 µg/mL"}
{"smiles": "CNC1=CC(=O)c2ccccc2C1=O", "agent": "Aspergillus ochraceus", "read-out": "MIC100", "method": "broth dilution", "strain": "MTCC 4893", "result": "125 µg/mL"}
{"smiles": "COc1ccccc1C=O", "agent": "Aspergillus terreus", "read-out": "MIC", "method": "agar", "strain": "UAB673", "result": "2500 µM"}
{"smiles": "O=C(O)c1cc(O)c(O)c(O)c1", "agent": "Aspergillus flavus", "read-out": "MIC50", "method": "agar", "result": ">1000 µg/mL"}
{"smiles": "C[C@@H]1[C@H](O)[C@@H](C)/C=C/C=C/CC/C=C/C=C/C=C/C=C/C(O[C@H]2O[C@H](C)[C@@H](O)[C@H](N)[C@@H]2O)CC2O[C@](O)(CC(O)C(O)CCC(O)CC(O)CC(O)CC(=O)O[C@H]1C)CC(O)C2C(=O)O", "agent": "Aspergillus ochraceus", "read-out": "MIC", "result": "39 µg/mL"}
{"smiles": "Cc1ccc(N2NOC(=O)C2S(=O)(=O)Nc2ccc(-n3c(-c4ccccc4)nc4ccccc4c3=O)cc2)cc1", "agent": "Aspergillus clavatus", "read-out": "zone", "dose": "250 µg/mL", "method": "agar diffusion", "strain": "MTCC323", "result": "24 mm"}
{"smiles": "O=C/C=C/c1ccccc1", "agent": "Aspergillus terreus", "read-out": "MIC", "method": "agar", "strain": "UAB673", "result": "500 µM"}
{"smiles": "COc1ccc(Cn2nc(C3CC3)cc2NC(=O)c2ccc(Cl)cc2Cl)cc1", "agent": "Aspergillus ochraceus", "read-out": "MIC", "result": "9 µg/mL"}
{"smiles": "Nc1[nH]c(=O)ncc1F", "agent": "Aspergillus niger", "read-out": "MIC90", "result": ">64 µg/mL"}
{"smiles": "Cc1ccc(N2NOC(=O)C2S(=O)(=O)Nc2nc3ccc(C)cc3s2)cc1", "agent": "Aspergillus clavatus", "read-out": "zone", "dose": "250 µg/mL", "method": "agar diffusion", "strain": "MTCC323", "result": "21 mm"}
{"smiles": "COc1ccc(Cn2nc(C3CC3)cc2NC(=O)c2cccc(C(C)(C)C)c2)cc1", "agent": "Aspergillus ochraceus", "read-out": "MIC", "result": "34 µg/mL"}
{"smiles": "OC[C@H]1O[C@@H](n2nc(-c3cccnc3)n(/N=C/c3ccccc3)c2=S)[C@H](O)[C@@H](O)[C@@H]1O", "agent": "Aspergillus fumigatus", "read-out": "zone", "dose": "2.5 mg/mL", "method": "agar diffusion / agar", "result": "1–5 mm"}
{"smiles": "Cc1ccc(N2NOC(=O)C2S(=O)(=O)Nc2nc(-c3ccc(Cl)cc3Cl)cs2)cc1", "agent": "Aspergillus clavatus", "read-out": "MIC", "method": "broth dilution", "strain": "MTCC323", "result": "500 µg/mL"}
{"smiles": "CC(=O)c1ccccc1O", "agent": "Aspergillus flavus", "read-out": "MIC100", "method": "agar", "result": "221 µg/mL"}
{"smiles": "CCC(C)n1ncn(-c2ccc(N3CCN(c4ccc(OC[C@H]5CO[C@](Cn6cncn6)(c6ccc(Cl)cc6Cl)O5)cc4)CC3)cc2)c1=O", "agent": "Aspergillus fumigatus", "read-out": "MFC", "strain": "NFI 0159", "result": "0.25 µg/mL"}
{"smiles": "C[C@H]1[C@H](O)[C@@H](C)/C=C/C=C/C=C/C=C/C=C/C=C/C=C/[C@H](O[C@@H]2O[C@H](C)[C@@H](O)[C@H](N)[C@@H]2O)C[C@@H]2O[C@](O)(C[C@@H](O)C[C@@H](O)CC[C@H](O)[C@@H](O)C[C@@H](O)CC(=O)O[C@H]1C)C[C@H](O)[C@H]2C(=O)O", "agent": "Aspergillus niger", "read-out": "MIC50", "result": "0.5–1 µg/mL"}
{"smiles": "Clc1cccc(N2CCN(c3nc(NCCNc4ncnc5c(Br)cc(Br)cc45)nc(NC4CC4)n3)CC2)c1Cl", "agent": "Aspergillus clavatus", "read-out": "MIC", "method": "agar", "strain": "MTCC 1323", "result": "100 µg/mL"}
{"smiles": "O=C1N[C@@H]2C=C[C@H]1C2", "agent": "Aspergillus glaucus", "read-out": "MIC", "strain": "AM211", "result": "245 µg/mL"}
{"smiles": "Fc1ccc(N2CCN(c3nc(Cl)nc(NC4CC4)n3)CC2)cc1", "agent": "Aspergillus clavatus", "read-out": "MIC", "method": "agar", "strain": "MTCC 1323", "result": "100 µg/mL"}
{"smiles": "C[C@H]1[C@H](O)[C@@H](C)/C=C/C=C/C=C/C=C/C=C/C=C/C=C/[C@H](O[C@@H]2O[C@H](C)[C@@H](O)[C@H](N)[C@@H]2O)C[C@@H]2O[C@](O)(C[C@@H](O)C[C@@H](O)CC[C@H](O)[C@@H](O)C[C@@H](O)CC(=O)O[C@H]1C)C[C@H](O)[C@H]2C(=O)O", "agent": "Aspergillus fumigatus", "read-out": "inhibition", "dose": "4 µg/mL", "method": "broth dilution", "strain": "AB16.4", "result": "66%"}

A second listing of 4 rows from above:

smiles	agent	read-out	dose	method	strain	result
COc1ccc(N2CCN(c3nc(Cl)nc(NC4CC4)n3)CC2)cc1	Aspergillus clavatus	MIC		agar	MTCC 1323	50 µg/mL
C[C@@H]1[C@H](O)[C@@H](C)/C=C/C=C/CC/C=C/C=C/C=C/C=C/C(O[C@H]2O[C@H](C)[C@@H](O)[C@H](N)[C@@H]2O)CC2O[C@](O)(CC(O)C(O)CCC(O)CC(O)CC(O)CC(=O)O[C@H]1C)CC(O)C2C(=O)O	Aspergillus clavatus	MIC			MTCC 1323	100 µg/mL
Clc1cccc(N2CCN(c3nc(NCCNc4ncnc5c(Br)cc(Br)cc45)nc(NC4CC4)n3)CC2)c1	Aspergillus clavatus	MIC		agar	MTCC 1323	100 µg/mL
CC(C)c1cc2c(c(O)c1O)[C@@]13CCCC(C)(C)C1C[C@@H]2OC3=O	Aspergillus tubingensis	zone	400 µg/mL	agar diffusion		0 mm